Results on two sequences are retold here after paper PMC8844411.

In the series the test system is rSEN1998 (RDF-like protein) (Salmonella enterica serovar Enteritidis P125109). Kind of series: EMSA. Particulars: 10 mM Tris-HCl pH 8.0, 150 mM KCl, 0.1 mM EDTA, 0.5 mM TCEP, 5% glycerol, room temperature, 60 min, recombinant protein, residues 1-72, protein details: N-terminal 6xHis (pET-15b), probe letters rebuilt from the primers and the genome.

In the case of “ATAGAGGCCAAACCCGTCAGTGAGCTTGACGGCCTTTTCCGATGGTCTGGTATTTTTTACTTTGGTATCAGTAAGTGACATGACGGTTCCCTCCGCGTGCTGGTAAAACACAAATCGAACCAGCTTTACCAGCATTTTTACCAGCAAAAGGGTATGGCTTCGAGTGGTTTTTAGTGAACGAGAGTGAACCTGAAGAAGGGAATAACCAGTTGATATAAATGCAGAAAGCAGACGTCAGTGAACGTCTGCTTTCCTTAATTTGGCTCCTCTGACTGGACTCGAACCAGTGACATACGGATTAACAGTCCGCCGTTCTACCGACTGAACTACAGAGGAATCGTGTGAACGGGGCGCATAGTA (double strand) [attL]”, the binding result (complexes visible from 3.5 uM (0, 0.696, 3.478, 6.956 uM tested), several complexes) is given as “binds”.
In the case of “TTAAACGTCTCCGGACTCGCCAGGATGTCCCGAAACTAAAATCTGGCTCCTCTGACTGGACTCGAACTTCATCTGTAGCTCCTGCTGTTAGTGGCTTTCAAAAAATGGCGTCTGTTTTTACCATCATATTTACCAGCATTTTTAATGCTGTATTACCATAAAGTCAATTACTATCAATTAGTTATGACAATACACTTCACTGAACCTTACTGAACGATCTTCCTGTGCTGCTATAAATTTTATCTCGTTTATTCAACAGATTACCGCTATTGCCCGATATGTTTCCTCCCGGAAAGATAAGTAAGGGCAGAAGAATACGTTATGACCAATGCTGAGATAGCCAGCCATCTTTATTCCCTTTCTCTATGCTGCTGGATGCGTTAACGTCAATGTAATGAACATCAACATTTTTAGGGAAAAGAATGACAAAAAGATTGCCTGTCGCG (double strand) [attR]”, under “complexes visible from 0.7 uM (0, 0.696, 3.478, 6.956 uM tested), higher affinity than attL suggested”, the binding result is “binds”.
